Anti-infective test results gathered from many reports (values: NIAID ChemDB through PubChem).

All rows: target-level tests; species: Toxoplasma gondii; protein: Dihydrofolate reductase; read-out: IC50

Neighbouring rows are from separate reports. ICn is the concentration giving n% inhibition.

structure	result
C/C(=C\c1coc2nc(N)nc(N)c12)c1ccc2ccccc2c1	0.3 µM
Nc1nc(N)c2cc(COC(=O)c3ccccc3)ccc2n1	0.099 µM
COc1ccc2c(c1)CCc1nc3nc(N)nc(N)c3cc1-2	4.7 µM
COc1ccc(CCc2cc3c(=O)[nH]c(N)nc3[nH]2)cc1	>37 µM
COc1cccc(OC)c1-c1cccc(C(=O)OCc2ccc3nc(N)nc(N)c3c2)c1	0.62 µM
CC(Cc1coc2nc(N)nc(N)c12)c1ccc(Cl)c(Cl)c1	5 µM
Nc1nc(N)c2cc(COC(=O)c3ccc4ccccc4c3)ccc2n1	0.51 µM
Nc1nc2[nH]c(CCc3cccc4ccccc34)cc2c(=O)[nH]1	>33 µM
Nc1nc(N)c2cc3c(ccc4ccccc43)nc2n1	0.3 µM
Nc1nc(N)c2c(n1)C1CCC(C2)C1	5.1 µM
CC(Cc1coc2nc(N)nc(N)c12)c1ccc(S)c(Cl)c1Cl	5 µM
Nc1nc(N)c2cc3c(nc2n1)-c1ccccc1CC3	0.18 µM
C/C(=C\c1coc2nc(N)nc(N)c12)c1cccc(Cl)c1	1.5 µM
COc1ccc(OC)c(CCc2cc3c(=O)[nH]c(N)nc3[nH]2)c1	>30 µM
Nc1nc(N)c2cc(COC(=O)c3cccs3)ccc2n1	0.13 µM
CC(Cc1coc2nc(N)nc(N)c12)c1cc(Cl)ccc1Cl	15 µM
CC(Cc1c[nH]c2nc(N)nc(N)c12)c1ccc(-c2ccccc2)cc1	0.0717 µM
Nc1nc(N)c2cc(COC(=O)c3c4ccccc4cc4ccccc34)ccc2n1	0.67 µM
C/C(=C\c1coc2nc(N)nc(N)c12)c1ccccc1Cl	12 µM
COc1cc(CCc2c[nH]c3nc(N)nc(N)c23)cc(OC)c1OC	0.037 µM
Cc1ccc(CCc2cc3c(=O)[nH]c(N)nc3[nH]2)cc1	>37 µM
CC(Cc1coc2nc(N)nc(N)c12)C1c2ccccc2-c2ccccc21	10 µM
Nc1nc(N)c2c(n1)-c1ccsc1CC2	101 µM
COc1cccc2c1CCc1cc3c(N)nc(N)nc3nc1-2	0.15 µM
COc1ccc(C(C)Cc2coc3nc(N)nc(N)c23)cc1OC	10 µM
CC/C=C/CC1=C(C)Cc2c(N)nc(N)nc21	30 µM

The last 4 rows once more:

structure	result
Nc1nc(N)c2c(n1)-c1ccsc1CC2	101 µM
COc1cccc2c1CCc1cc3c(N)nc(N)nc3nc1-2	0.15 µM
COc1ccc(C(C)Cc2coc3nc(N)nc(N)c23)cc1OC	10 µM
CC/C=C/CC1=C(C)Cc2c(N)nc(N)nc21	30 µM